PubChem BioAssay AID504761 | Drosophila RNAi Screening Center | 2011
The screen tested about 22,000 reagents; below is a random part of those with a known target gene and a result. In the full data, 116 (0.52%) are marked active. 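Calls depend on retest data that are not deposited; infection was ranked per plate without normalising between plates; the unit of the infection score is not given.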 The raw values are shown without normalisation. A plus sign joins genes that one reagent is predicted to hit. Not all columns of the deposit are shown. Not given: the amount of reagent, the time to read-out.

Purpose: 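Fly genes whose silencing reduces dengue virus type 2 infection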 (primary screen)
Cells: D.Mel-2 cells from Drosophila
Reagents: long dsRNA against Drosophila genes
Treatment: infection with dengue virus type 2; dose and infection time not stated
Read-out: 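Cells stained for dengue envelope protein and imaged; percent of infected cells per well on duplicate plates, ranked by infection, with stained nuclei counted for cell number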
Scale: infection score: higher = more virus-infected cells; cell count: higher = more cells in the well
Hit rule: 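Very low infection ranking in both replicate wells (chance probability at most 0.065), then a retest showing infection dropped 1.5-fold or more at p below 0.05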
Calls: active = confirmed: knock-down lowers infection; inactive = not picked or not confirmed

Atg6 [DRSC15798] — infection score, replicate 1: 2.32; cell count, replicate 1: 6843; Call: inactive
Atg6 [DRSC24442] — infection score, replicate 1: 5.85; cell count, replicate 1: 6322; Call: inactive
Ote [DRSC07498] — infection score, replicate 1: 8.69; cell count, replicate 1: 6719; Call: inactive
CR31822 [DRSC01510] — infection score, replicate 1: 1.05; cell count, replicate 1: 5740; Call: inactive
DNAlig1 [DRSC04518] — infection score, replicate 1: 14.2; cell count, replicate 1: 5662; Call: inactive
CG12093 [DRSC08252] — infection score, replicate 1: 11.2; cell count, replicate 1: 6320; Call: inactive
CG34286 [DRSC21790] — infection score, replicate 1: 3.04; cell count, replicate 1: 6840; Call: inactive
Snapin + HemK2 [DRSC26185] — infection score, replicate 1: 13; cell count, replicate 1: 5145; Call: inactive
CG7148 [DRSC11802] — infection score, replicate 1: 7.13; cell count, replicate 1: 5862; Call: inactive
CG9467 [DRSC16498] — infection score, replicate 1: 7.93; cell count, replicate 1: 6723; Call: inactive
CG14778 [DRSC17953] — infection score, replicate 1: 6.32; cell count, replicate 1: 6776; Call: inactive
CG31267 [DRSC15748] — infection score, replicate 1: 3.41; cell count, replicate 1: 6535; Call: inactive
Polr1B [DRSC00780] — infection score, replicate 1: 2.95; cell count, replicate 1: 5588; Call: inactive
aus [DRSC13471] — infection score, replicate 1: 4.7; cell count, replicate 1: 5857; Call: inactive
aus [DRSC13473] — infection score, replicate 1: 0.52; cell count, replicate 1: 6518; Call: inactive
aus [DRSC15157] — infection score, replicate 1: 1.51; cell count, replicate 1: 6108; Call: inactive
aus [DRSC26783] — infection score, replicate 1: 7.48; cell count, replicate 1: 6601; Call: inactive
CG11034 [DRSC02121] — infection score, replicate 1: 1.68; cell count, replicate 1: 6009; Call: inactive
CG11034 [DRSC02122] — infection score, replicate 1: 3.44; cell count, replicate 1: 6449; Call: inactive
CG6891 [DRSC20016] — infection score, replicate 1: 9.99; cell count, replicate 1: 6887; Call: inactive
CG6891 [DRSC25854] — infection score, replicate 1: 1.57; cell count, replicate 1: 6483; Call: inactive
mute [DRSC06562] — infection score, replicate 1: 7.7; cell count, replicate 1: 4014; Call: inactive
mute [DRSC22931] — infection score, replicate 1: 1.53; cell count, replicate 1: 5174; Call: inactive
mute [DRSC29848] — infection score, replicate 1: 3.96; cell count, replicate 1: 3584; Call: inactive
park [DRSC11618] — infection score, replicate 1: 8.34; cell count, replicate 1: 6571; Call: inactive
CG17650 [DRSC00510] — infection score, replicate 1: 2.35; cell count, replicate 1: 6736; Call: inactive
CG5321 [DRSC19940] — infection score, replicate 1: 13.6; cell count, replicate 1: 6266; Call: inactive
CG5321 [DRSC22802] — infection score, replicate 1: 1.26; cell count, replicate 1: 6174; Call: inactive
CG5321 [DRSC27348] — infection score, replicate 1: 3.77; cell count, replicate 1: 6640; Call: inactive

2 entries from above, reformatted:
Gene	dsRNA	infection score, replicate 1	cell count, replicate 1	Call
Ote	DRSC07498	8.69	6719	inactive
CR31822	DRSC01510	1.05	5740	inactive
